Measured values from several laboratories, pooled; numbers as filed in NIAID ChemDB.

All rows: tests in culture; species: HIV-1

Blank or dashed fields: not listed here.

structure,read by,changes,endpoint,cells,strain,result
Cc1cc(C)cc(S(=O)(=O)c2c(C(=O)NS(=O)(=O)C(F)(F)F)[nH]c3ccc(Cl)cc23)c1,MTT,L100I,EC50,MT-4,-,10.02 µM
COc1ccc2[nH]c(C(=O)NCc3ccc(Cl)c(Oc4cc(Cl)cc(C#N)c4)c3)cc2c1,-,-,EC50,HeLa,HXB2,0.01–1 µM
O=C(c1ccccc1SSc1ccccc1C(=O)N1CCCC1)N1CCCC1,cytopathic effect / XTT,-,EC50,CEM,-,>25 µM
CCCS(=O)(=O)NC(=O)c1[nH]c2ccc(Cl)cc2c1S(=O)(=O)c1cc(C)cc(C)c1,MTT,Y188L,EC50,MT-4,-,>141 µM
COC(O)c1cnc(Nc2ccc(C#N)cc2)nc1Nc1c(C)cc(/C=C/C#N)cc1C,-,-,EC50,MT-4,Y181C,0.01175 µM
Cc1cn(C2CC(n3nnc(C4(C(F)(F)F)OC(=O)Nc5ccc(Cl)cc54)c3C3CC3)C(CO)O2)c(=O)[nH]c1=O,luminescence,-,EC50,TZM-bl,UG070,1.22 µg/mL
O=C(c1ccccc1SSc1ccccc1C(=O)N1CCC(O)C1)N1CCC(O)C1,cytopathic effect / XTT,-,EC50,CEM,-,65 µM
CCCc1c(SCC2CCC2)c2cc(Cl)ccc2[nH]c1=O,-,RT-Y181C,EC50,MT-4,Nevirapine-resistant (RT Y181C),0.107 µM
N#CC(=C1CCN(C(=O)C(=O)c2c[nH]c3c(Cl)ccnc23)CC1)c1ccccc1,luciferase,-,EC50,HeLa,-,<1 µM
C[C@@H]1CCO[C@H]2Cn3cc(C(=O)NCc4ccc(F)cc4F)c(=O)c(O)c3C(=O)N12,GFP,-,EC50,CEM-GXR,NL4-3,0.0011 µM
CC(C)c1c(OC#CC2CC2)c2cc(Cl)ccc2[nH]c1=O,-,RT-103N Y181C,EC50,MT-4,-,0.8 µM
COc1cccc(C(=O)[C@@H]2[C@@H](c3ccccc3)[C@](C#N)(C(N)=O)[C@H]3CCc4cc(C)ccc4N23)c1,luciferase,-,EC50,293T,-,13.7 µM
Cc1cccc(C(=O)c2ccc3[nH]c(=O)sc3c2)c1,syncytia,-,EC50,CEM,IIIB,4.6 µg/mL
COc1ccc2c(c1)CCC/C2=N\OC(=O)Nc1ccccc1-c1ccccc1,cytopathic effect / XTT / ELISA,-,EC50,MT-2,IIIB,>100 µg/mL
COC(=O)[C@H](C)NP(=O)(OC[C@@H]1C=C[C@H](n2cc(C)c(=O)[nH]c2=O)O1)Oc1ccc(Br)cc1,RT activity,-,EC50,CEM + CEM TK-,IIIB,0.057 µM
CN1C(=O)C(c2cc(Cl)c(O)c(Cl)c2)NC(=O)[C@@H]2NC(=O)C(c3cc(Cl)c(O)c(Cl)c3)NC(=O)[C@H](NC(=O)C(=O)c3cc(Cl)c(O)c(Cl)c3)Cc3c[nH]c4c(cccc34)-c3cc2cc(c3O)Oc2ccc(cc2)CC1C(=O)NC(C(=O)O)c1ccc(O)cc1,syncytia,-,EC50,MOLT-4,IIIB,1.1 µM
Cc1cc(C)cc(S(=O)(=O)c2c(C(=O)NS(=O)(=O)c3ccc(F)cc3F)[nH]c3ccc(Cl)cc23)c1,MTT,Y188L,EC50,MT-4,-,>167 µM
CC(C)CN(C[C@@H](O)[C@H](Cc1ccccc1)NC(=O)OCc1cnc[nH]1)S(=O)(=O)c1ccc2nc(N)oc2c1,cytopathic effect / MTT,-,EC50,MT-4,LAI WT,1.349 µM
Cc1nc2c3ncn([C@@H]4O[C@H](CO)[C@@H](O)[C@@]4(C)O)c3nc(N)n2n1,ELISA,-,EC90,-,LAI,>100 µM
CN(C)c1cccc(C(=O)c2ccc3[nH]c(=O)oc3c2)c1,syncytia,-,EC50,CEM,IIIB,>8 µg/mL
Cc1c(C(=O)N[C@@H](Cc2ccccc2)[C@H](O)CN(CC(C)C)S(=O)(=O)c2ccc3nc(N)oc3c2)ccc(N)c1O,cytopathic effect / MTT,-,EC50,MT-4,LAI WT,0.3548 µM
CCc1nnc(C(=C2CCN(C(=O)C(=O)c3c[nH]c4c(-n5ccnn5)ncc(OC)c34)CC2)c2ccccc2)o1,luciferase,-,EC50,HeLa,-,<1 µM
COC(=O)[C@H](C)NP(=O)(OC[C@@H]1C=C[C@H](n2cc(C)c(=O)[nH]c2=O)O1)Oc1ccc(OC)cc1,p24,-,EC50,CEM + CEM TK-,IIIB,0.106 µM
Cc1cn(C2OC(CO[Si](C)(C)C(C)(C)C)C3(OS(=O)(=O)C=C3N)C2O[Si](C)(C)C(C)(C)C)c(=O)n(CC(=O)N(CCCl)CCCl)c1=O,syncytia,-,EC50,CEM,E138K,>25 µM
O=C(NC1CCCCC1)c1ccccc1SSc1ccccc1C(=O)NC1CCCCC1,cytopathic effect / XTT,-,EC50,CEM,-,3.7 µM
COc1ncc(OC)c2c(C(=O)C(=O)N3CCC(=C(c4ccccc4)c4ccccn4)CC3)c[nH]c12,luciferase,-,EC50,HeLa,-,<1 µM
COc1c(Cl)cc(C(=CCC[C@@H](C)[C@H]2CCC3C4C(C[C@H](O)[C@@]32C)[C@@]2(C)CC[C@@H](O)C[C@H]2C[C@H]4O)c2cc(Cl)c(OC)c(C(=O)O)c2)cc1C(=O)O,syncytia,-,EC50,CEM + CEM-SS,RF,53.1 µM
O=C(O)c1cc(-n2cccc2)ccc1Cl,luciferase / cell fusion,-,EC50,PBMC/5.25M7,BCF02 R5 GROUP O,46.4 µM
COc1cnc(-c2cnccn2)c2[nH]cc(C(=O)C(=O)N3CCC(=C(C#N)c4ccccc4)CC3)c12,luciferase,-,EC50,HeLa,-,<1 µM
C[C@@]1(O)[C@H](O)[C@@H](CO)O[C@H]1n1cnc2c(N)nc(NN)nc21,ELISA,-,EC90,-,LAI,>100 µM
Cc1cc(/C=C/C#N)cc(C)c1Nc1nc(Nc2ccc(C#N)cc2)ncc1C(O)C(C)C,-,-,EC50,MT-4,Y181C,0.219 µM
COc1cnc(-c2ccc(C(=O)N3CCCC3)cc2)c2[nH]cc(C(=O)C(=O)N3CCC(=C(C#N)c4ccccc4)CC3)c12,luciferase,-,EC50,HeLa,-,<1 µM
Cn1c(=O)sc2cc(C(=O)c3cccc(F)c3)ccc21,syncytia,-,EC50,CEM,IIIB,>200 µg/mL
Cc1cc(Br)ccc1C(=O)N[C@@H](Cc1ccccc1)[C@H](O)CN(CC(C)C)S(=O)(=O)c1ccc2nc(N)oc2c1,cytopathic effect / MTT,-,EC50,MT-4,LAI WT,0.0079 µM
Cc1cc(C)cc(S(=O)(=O)c2c(C(=O)NS(=O)(=O)c3ccc(F)cc3)[nH]c3ccc(Cl)cc23)c1,MTT,Y181C,EC50,MT-4,-,>121 µM
CCc1c(OC#CC2CC2)c2cc(F)ccc2[nH]c1=O,-,RT-K103N,EC50,MT-4,-,0.4 µM
Cc1cc(/C=C/C#N)cc(C)c1Nc1nc(Nc2ccc(C#N)cc2)ncc1C(O)c1cn2ccnc2s1,-,-,EC50,MT-4,PSI (IIIB),1000 µM
O=c1[nH]c(=S)ccn1[C@@H]1O[C@H](COP(=O)(O)O)[C@@H](O)[C@H]1O,β-galactosidase / visual reading,-,EC50,MAGI,IIIB,4.7 µM
CCCc1c(OC2CCCC2)c2cc(C#N)ccc2[nH]c1=O,-,RT-Y181C,EC50,MT-4,Nevirapine-resistant (RT Y181C),2.36 µM
COc1ncc(OC)c2c(C(=O)C(=O)N3CCC(=C(C#CCO)c4ccccc4)CC3)c[nH]c12,luciferase,-,EC50,HeLa,-,<1 µM
CC(=O)n1c(=O)sc2cc(C(=O)c3ccccc3)ccc21,syncytia,-,EC50,CEM,IIIB,4.6 µg/mL
O=S(=O)(c1cccc2cnccc12)N1CCNCC1,cytopathic effect / MTT,-,EC50,MOLT-4,IIIB,>8.4 µg/mL
Cc1cn(C2OC(CO[Si](C)(C)C(C)(C)C)C3(OS(=O)(=O)C=C3N)C2O[Si](C)(C)C(C)(C)C)c(=O)n(CCCNC(=O)c2ccc(N=[N+]=[N-])cc2O)c1=O,syncytia,-,EC50,CEM,IIIB,0.37 µM
CC(C)c1c(SCC2CCC2)c2cc(F)ccc2[nH]c1=O,-,RT-Y181C,EC50,MT-4,Nevirapine-resistant (RT Y181C),0.068 µM
CCc1c(Sc2ccccc2)n(COCc2ccccc2)c(=O)[nH]c1=O,p24,-,EC50,MT-4,A012D,0.0029 µM
C#Cc1ccc(Nc2nccc(Oc3c(C)cc(-c4cn(CCc5cccs5)nn4)cc3C)n2)cc1,MTT,Y181C,EC50,MT-4,IIIB,>5.53 µM
Cc1csc(C(O)c2cnc(Nc3ccc(C#N)cc3)nc2Nc2c(C)cc(/C=C/C#N)cc2C)n1,-,-,EC50,MT-4,PSI (IIIB),295 µM
CC(C)CCC[C@@H](C)[C@H]1CC[C@H]2[C@@H]3CC[C@H]4C[C@@H](CCC=C(c5cc(Cl)c(O)c(C(=O)O)c5)c5cc(Cl)c(O)c(C(=O)O)c5)CC[C@]4(C)[C@H]3CC[C@]12C,MTT,-,EC50,MT-4,IIIB,3 µM
COc1nc(Cl)nc2c1ncn2[C@@H]1O[C@H](CO)[C@@H](O)[C@@]1(C)O,ELISA,-,EC90,-,LAI,>100 µM
CCN(CC)C(=O)OC[C@@H]1CN(C(=O)c2ccccc2)CCN1C(=O)C(=O)c1c[nH]c2nccc(OC)c12,RT activity,-,EC90,PBMC,LAI,>125 µM
Cc1nc(N)nc2c1ncn2[C@@H]1O[C@H](CO)[C@@H](O)[C@@]1(C)O,ELISA,-,EC90,-,LAI,>100 µM
COCCOC(O)c1cnc(Nc2ccc(C#N)cc2)nc1Nc1c(C)cc(/C=C/C#N)cc1C,-,-,EC50,MT-4,MDR,151 µM
Cc1ccc2c(c1)CC[C@H]1N2[C@H](C(=O)c2ccsc2)[C@@H](c2ccc(Cl)cc2)[C@]1(C#N)C(N)=O,luciferase,-,EC50,293T,-,46 µM
COP(=O)(c1cc(C)cc(CCC#N)c1)c1c(C(N)=O)[nH]c2ccc(Cl)c(F)c12,p24 / ELISA,Y181C,EC50,MT-4,NL4-3,0.0039 µM
COc1ncc(OC)c2c(C(=O)C(=O)N3CCC(=C(c4ccccc4)c4ccc(C#N)cc4)CC3)c[nH]c12,luciferase,-,EC50,HeLa,-,<1 µM
CCCc1c(OC2CCCC2)c2cc(F)ccc2[nH]c1=O,-,-,EC50,MT-4,-,0.094 µM
C#Cc1ccc(Nc2nccc(Oc3c(C)cc(-c4cn(Cc5ccc(C(=O)OC)cc5)nn4)cc3C)n2)cc1,MTT,E138K,EC50,MT-4,IIIB,0.61 µM
Cc1cn(C2OC(CO[Si](C)(C)C(C)(C)C)C3(OS(=O)(=O)C=C3N)C2O[Si](C)(C)C(C)(C)C)c(=O)n(/C=C/CO)c1=O,syncytia,-,EC50,CEM,E138K,>2 µM
COc1cccc(C(=O)C2C(c3ccc(Cl)cc3)C(C#N)(C(N)=O)C3CCc4cc(C)ccc4N23)c1,luciferase,-,EC50,Jurkat cells,-,17 µM
CC(C)CN(C[C@@H](O)[C@H](Cc1ccccc1)NC(=O)OCc1cnco1)S(=O)(=O)c1ccc2nc(N)oc2c1,cytopathic effect / MTT,-,EC50,MT-4,LAI WT,0.0072 µM
COc1ccc(O)c2c(=O)c3ccccc3n(C)c12,p24 / ELISA,-,EC50,OM-10.1,IIIB,>16 µg/mL
O=c1[nH]c2ccc(Cc3ccccc3F)cc2o1,syncytia,-,EC50,CEM,IIIB,>8 µg/mL
Cn1c2ccccc2c(=O)c2c(O)cccc21,p24 / ELISA,-,EC50,U-937,IIIB,7 µg/mL
C[C@H]1CO[C@@H]2Cn3cc(C(=O)NCc4ccc(F)cc4F)c(=O)c(O)c3C(=O)N12,GFP,T97A E138K G140S Q148H,EC50,CEM-GXR,NL4-3,0.177 µM
CNC(O)c1cnc(Nc2ccc(C#N)cc2)nc1Nc1c(C)cc(/C=C/C#N)cc1C,-,-,EC50,MT-4,L100I + K103N,0.01622 µM
Cc1cc(C)cc(S(=O)(=O)c2c(C(=O)NS(=O)(=O)c3ccccc3)[nH]c3ccc(Cl)cc23)c1,MTT,Y181C,EC50,MT-4,-,6.71 µM
NC(=O)c1cccc(SSc2cccc(C(N)=O)c2)c1,cytopathic effect / XTT,-,EC50,CEM,-,61 µM
Cc1cc(/C=C/C#N)cc(C)c1Nc1nc(Nc2ccc(C#N)cc2)ncc1C(O)n1ccnc1,-,-,EC50,MT-4,L100I + K103N,0.0389 µM
Cc1cn([C@H]2C[C@H](N=[N+]=[N-])[C@@H](CO)O2)c(=O)[nH]c1=O,RT activity,-,EC90,PBMC,LAI,0.12 µM

The last 9 rows once more:

structure | read by | changes | endpoint | cells | strain | result
COc1ccc(O)c2c(=O)c3ccccc3n(C)c12 | p24 / ELISA | - | EC50 | OM-10.1 | IIIB | >16 µg/mL
O=c1[nH]c2ccc(Cc3ccccc3F)cc2o1 | syncytia | - | EC50 | CEM | IIIB | >8 µg/mL
Cn1c2ccccc2c(=O)c2c(O)cccc21 | p24 / ELISA | - | EC50 | U-937 | IIIB | 7 µg/mL
C[C@H]1CO[C@@H]2Cn3cc(C(=O)NCc4ccc(F)cc4F)c(=O)c(O)c3C(=O)N12 | GFP | T97A E138K G140S Q148H | EC50 | CEM-GXR | NL4-3 | 0.177 µM
CNC(O)c1cnc(Nc2ccc(C#N)cc2)nc1Nc1c(C)cc(/C=C/C#N)cc1C | - | - | EC50 | MT-4 | L100I + K103N | 0.01622 µM
Cc1cc(C)cc(S(=O)(=O)c2c(C(=O)NS(=O)(=O)c3ccccc3)[nH]c3ccc(Cl)cc23)c1 | MTT | Y181C | EC50 | MT-4 | - | 6.71 µM
NC(=O)c1cccc(SSc2cccc(C(N)=O)c2)c1 | cytopathic effect / XTT | - | EC50 | CEM | - | 61 µM
Cc1cc(/C=C/C#N)cc(C)c1Nc1nc(Nc2ccc(C#N)cc2)ncc1C(O)n1ccnc1 | - | - | EC50 | MT-4 | L100I + K103N | 0.0389 µM
Cc1cn([C@H]2C[C@H](N=[N+]=[N-])[C@@H](CO)O2)c(=O)[nH]c1=O | RT activity | - | EC90 | PBMC | LAI | 0.12 µM

Two numbers with a dash give a range or band. Neighbouring rows are from separate reports. ECn: concentration that inhibits the pathogen or its effect by n%.